Measurements: patent publication US12485127B2, “Compositions and methods for treatment and prevention of actinic keratosis using copper chlorin” (CHL Industries, LLC, priority 2024, dated 2025)

How the values were obtained:
Type in all cases: cell-based, human papillomavirus
Conditions in all cases: for SI50: CC50/EC50; for SI90: CC50/EC90
[1] = system: HPV-18 (strain: KC470230.1); assay: HPV-18 genome plasmid replication assay in C-33 A cells
Procedure: (§1) The in vitro testing of the chlorin compounds and the positive control for antiviral cytopathic effect (CPE) was conducted through The National Institute of Allergy and Infectious Diseases (NIAID) NCEA Program. The in vitro testing was done by the method described by Beadle J R, Valiaeva N, Yang G, Yu J H, Broker T R, Aldern K A, et al. Synthesis and Antiviral Evaluation of Octadecyloxyethyl Benzyl 9-[(2-Phosphonomethoxy)ethyl]guanine (ODE-Bn-PMEG), a Potent Inhibitor of Transient HPV DNA Amplification. J Med Chem. 2016; 59(23):10470-8. PubMed PMID: 27933957. This method uses an HPV-11 replicon assay. The replicon (pMP619) is transfected into C-33 A cells grown as monolayers in 384-well plates. At 48 hours post transfection, the enzymatic activity of the destabilized NanoLuc reporter is assessed with NanoGlo reagent. […] The host C-33 A cells are epithelial cells originally isolated from the cervix of a uterine cancer patient. For reasons previously mentioned in this application, in vitro testing of compounds for potential antiviral activity against HPV strains cannot use human keratinocytes as the host cells due to the variable HPV replication activity with this cell line.
(§2) The EC50 (or Effective Concentration 50) is the concentration of the test compound in micromoles that reduces virus replication by 50%. The EC90 (or Effective Concentration 90) is the concentration of the test compound in micromoles that reduces virus replication by 90%. CC50 (or Cytotoxic Concentration 50) is the concentration of the test compound in micromoles that reduces the cell viability of the virus host cell by 50%. The SI50 (or Selectivity Index 50) is a measure of both safety and efficacy or therapeutic index and is calculated by dividing the CC50 by the EC50. The SI90 (Selectivity Index 90) is calculated by dividing the CC50 by the EC90.
(§3) The in vitro test method used to assess activity of copper chlorins according to embodiments herein against HPV-18 and HPV-31 used the same replication and quantification method described previously for Table 1 results but with HPV-18 and HPV-31 genome plasmids. Results of the in vitro testing of three of the same copper chlorins as used in Table 1, as well as the same control, against HPV 18 and HPV 31 are summarized in Table 2 and Table 3 below.

[2] = system: HPV-31 (strain: HQ53768.1); assay: HPV-31 genome plasmid replication assay in C-33 A cells
Procedure: as §1, §2, §3

[3] = system: HPV-11 (HE611260.1 strain); assay: HPV-11 replicon assay (NanoLuc reporter) in C-33 A cells
Procedure: as §1
The control compound, PMEG, has a molecular weight of 289.188 g/mol. The molecular weight of the copper chlorin compounds evaluated are (1) 661.5 g/mol for disodium copper isochlorin e4; (2) 710.5 g/mol for trisodium copper chlorin p6; (3) 724.15 g/mol for trisodium copper chlorin e6; and (4) 740 g/mol for trisodium copper rhodin g7. The antiviral test results in Table 1 for each treatment composition and the control are reported in micromoles (uM) for the EC50, EC90, and CC50. The SI 50 and SI 90 are calculated from the EC50, EC90, and CC50 data.
as §2

Molecule | SI50 [1] | SI90 [1] | SI50 [2] | SI90 [2] | SI50 [3] | SI90 [3]
Nc1nc2c(ncn2CCOCP(=O)(O)O)c(=O)[nH]1 [9-[2-(phosphono-methoxy)-ethyl]guanine, reference compound] | >107 | >12 | >64 | >14 | >164 | 1
C=Cc1c(C)c2cc3nc(c(CC(=O)[O-])c4[n-]c(cc5nc(cc1[n-]2)C(C)=C5CC)c(C)c4C(=O)[O-])C(CCC(=O)[O-])C3C.[Cu+2].[Na+].[Na+].[Na+] (centres unmarked) [Trisodium copper chlorin e6] | 38 | 18 | 27 | 13 | 28 | 3
C=Cc1c(C)c2cc3nc(c(C(=O)[O-])c4[n-]c(cc5nc(cc1[n-]2)C(C)=C5CC)c(C)c4C(=O)[O-])C(CCC(=O)[O-])C3C.[Cu+2].[Na+].[Na+].[Na+] (centres unmarked) [Trisodium copper chlorin p6] |  |  |  |  | 11 | 2
Disodium copper isochlorin e4 | 16 | 8 | 206 | 12 | 17 | 4
Trisodium copper rhodin g7 | 196 | 89 | 632 | 140 | >33 | >3
